Here are results for seven molecules from the supplement of paper PMC9931576.

Human monoclonal antibodies against the spike receptor-binding domain (heavy:light variable regions). IC50 against pseudoviruses bearing the spike of naturally observed variants; lower = stronger; >10 µg/ml means not reached at the top dose. No active / inactive call. The stated detection limit is 0.0005 µg/ml; values near or below 0.001 µg/ml lie at the floor of the assay.

What all share (test): pseudovirus neutralization IC50; higher = weaker neutralization
Assay [1] has as its target SARS-CoV-2 Omicron BA.1 spike pseudovirus. The method, then:
(§1)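 Single-round VSV luciferase pseudovirus mixed with antibody dilutions for 1 h and put on Huh-7 cells for about a day; IC50 from the dose curve.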

The target of assay [2] is SARS-CoV-2 Omicron BA.2 spike pseudovirus. The method, then:
as §1

The target of assay [3] is SARS-CoV-2 Omicron BA.2.75 spike pseudovirus. The procedure:
as §1

For assay [4], the target named is SARS-CoV-2 Omicron BA.5 spike pseudovirus. The procedure:
as §1

Assay [5] addresses SARS-CoV-2 Omicron BQ.1.1 spike pseudovirus. The method, then: as §1
The target in assay [6] is SARS-CoV-2 Omicron XBB spike pseudovirus. The procedure: as §1
Assay [7] has as its target SARS-CoV-2 early D614G spike pseudovirus. The method, then:
as §1

B1: BD-813 (protein)
chain 1: VQLVESGGGLVQPGGSLRLSCAASEFIVSANYMSWVRQAPGKGLEWVSVIYSGGSTFYADSVKGRFTISRDNSKNTLYLQMNSLRVEDTAVYFCARFLPTYDYFDYWGQGTLVTVSS
chain 2: DIQMTQSPSSLSASVGDRVTITCRTSQSISTYLHWYQQKPGKAPKLLIYAASSLHSGVPSRFSGSGSGTHFVLTINGLQPEDFATYYCQHTDTTPLTFFGGGTKVEIK
In the case of B1, the “pseudovirus neutralization IC50” value in assay [1], in assay [2], in assay [3], in assay [4], in assay [5] and in assay [6] was > 10 µg/mL each time. Also, in assay [7], the “pseudovirus neutralization IC50” value was 0.007 µg/mL.

B2: BD-812 (protein)
chain 1: EVQLVQSGAEVKKPGESLKISCQFSEYKLISFWIAWVRQRPGKGLEWMGIIYPDDSDTKYSPSSQGQVTISADKSIRTAYLQWSSLMASDTAMYYCTSGSYYGTLDFWGQGTLVTVSS
chain 2: DIEITQSPSSLSASVGDRVTISCRASQDIRTYVAWYQQRPGKVPRLLIYAASTLQSGVPSRFSGRGSGTDFTLTISSLQPEDVATYYCQQYNSAPLTFGGGAKVEIK
On to B2, for which the “pseudovirus neutralization IC50” value in assay [1] was 3.1 µg/mL; in assay [2], 0.0161 µg/mL; in assay [3], 0.587 µg/mL; in assay [4] it was 0.0143 µg/mL; in assay [5], > 10 µg/mL; in assay [6] it was > 10 µg/mL. Also, in assay [7], the “pseudovirus neutralization IC50” value worked out at 0.002 µg/mL.

B3: BD55-1570 (protein)
chain 1: QVQLQESGPGLVKPSQTLSLTCTVSGDSFISGNFYWSWIRQHPGKGLEWIGYIYYSGSTYYNPSLKSRVNISIDRSKNQFSLQLDNVAAADTAVYYCVREVIARRSDGHYPDYFGIDVWGQGTTVTVSS
chain 2: EILMTQSPATLSVSPGQRATLSCRASQSITNNLAWYQHKPGQAPRLLIYGASTRATGIPARFSGSGSGTQFTLTISSLQSEDFAVYYCQQYNNLPPWTFGQGTKVEV
On to B3, for which the “pseudovirus neutralization IC50” value in assay [1], in assay [2], in assay [3], in assay [4], in assay [5] and in assay [6] was > 10 µg/mL in each case. For the same molecule, the “pseudovirus neutralization IC50” value in assay [7] stood at 3.92 µg/mL.

B4: BD-612 (protein)
chain 1: EVQLVESGGGLVQPGGSLRLSCAASGLTVSSNYMSWVRQAPGKGLEWVSVIYSGGSTFYADSVKGRFTISRDNSKNTLYLQMNSVRAEDTAVYYCARLPYGMDVWGQGTTVTVSS
chain 2: DIQMTQSPSSLSASVGDRVTITCQASQDVSKYLNWYQQKPGKAPKLLIHDASNLQTGVPSRFSGGGSGTDFTFTISSLQPEDIATYYCQQYDNLPVTFGGGTKVEIK
As for B4, the “pseudovirus neutralization IC50” value was 5.48 µg/mL in assay [1]; 3.07 µg/mL in assay [2]; > 10 µg/mL in assay [3]; 4.87 µg/mL in assay [4]; > 10 µg/mL in assay [5]; > 10 µg/mL in assay [6]. Also, the “pseudovirus neutralization IC50” value in assay [7] is 0.03 µg/mL.

B5: BD55-1558 (protein)
chain 1: QVQLQESGPGLVKPSGTLTLSCAVSGAPIISANWWSWVRQRPGEGLEWIGEIYHTGATEYNPSLKRRVIVSLEESRNQFSLTLNSVTAADTAVYYCARVVSTALRYFDFWGQGTLVTVSA
chain 2: DIQMTQSPSSLSASIGGRVTISCRAGQDISKSLSWYQQKPGKAPQLLIYGASTLHYGVPSRFSATGSGTDFTLTISTLHPDDFATYYCQQTYATPRTFGQGTKVDLQ
For the molecule B5, the “pseudovirus neutralization IC50” value in assay [1], in assay [2], in assay [3], in assay [4], in assay [5] and in assay [6] was > 10 µg/mL each time. The “pseudovirus neutralization IC50” value in assay [7] was 7.21 µg/mL.

B6: BD-809 (protein)
chain 1: EVQLVQSGAEVKKPGESLKISCKGSGYSFTSNWIGWVRQMPGKGLEWMGIIYPYDSDTRYSPSFQGQVTISADKSISTAYLQWNSLKASDTAMYYCARRGDTQVIDFWGQGTLVTVSS
chain 2: SSELTQDPAVSVALGQTVRITCQGDSLRSYSASWYQQKPRQAPILVIYAKSNRPSGIPDRFSGSSSGNTASLTITGAQAEDEADYYCSSRDSSGNHYVFGTGTQVTVL
For B6, the “pseudovirus neutralization IC50” value in assay [1] is 1.31 µg/mL; in assay [2] it was 3.14 µg/mL; in assay [3], 3.96 µg/mL; in assay [4] it was 3.27 µg/mL; in assay [5], 1.66 µg/mL; in assay [6] it was 1.72 µg/mL. For the same molecule, in assay [7], the “pseudovirus neutralization IC50” value was determined as 0.455 µg/mL.

B7: BD55-1694 (protein)
chain 1: QVQLVESGGGVVQPGRSLRLSCEASGFAFSTYPIHWVRQAPGKGLEWVAVISFDGSDKFYTDSVKGRFTISRDNSENTLYLQMNSLRVEDTAVYYCARAIPRATQKYYYSYGMDVWGQGTTVTVSS
chain 2: DIVMTQTPLSLSVTPGQPASMSCKSSQSLLHSNGRTYLYWYLQRPGQSPQLLIYEVSNRISGVPDRFSGSGSGTDFTLKISRVEAEDVGVYYCMQSIELPVTFGGGTKVEIK
With B7, the “pseudovirus neutralization IC50” value in assay [1], in assay [2], in assay [3], in assay [4], in assay [5] and in assay [6] was > 10 µg/mL in each case. Moreover, in assay [7], the “pseudovirus neutralization IC50” value was found to be 0.0017 µg/mL.
